Pooled drug test results. Numbers come from NIAID ChemDB, via PubChem.

All rows: tests in culture; organism: Mycobacterium tuberculosis

A number after MIC or MFC names an inhibition level or a share of isolates. Conditions beyond the fields shown may differ between rows. Percent inhibition refers to the dose given; in toxicity tests it is the harm to the cells. ECn: concentration that inhibits the pathogen or its effect by n%. MIC bound comes from a single tested concentration. An empty or dashed field is not shown.

smiles,read by,read-out,strain,conditions,cells,tested at,changes,value
Brc1ccc(-c2nc3sc(-c4cccs4)nn3c2CN2CCCCC2)cc1,BACTEC,inhibition,H37Rv,,,6.25 µg/mL,,<90%
CCn1c(=O)c2c3c(cnc2n(CC)c1=O)C(=O)C1=C(C3=O)C2CCC1CC2,luminescence,EC90,H37Rv,,,,pSMT1 luciferase reporter plasmid,4.33 µg/mL
Cc1ccc(NCCN2CCCCC2)c2c(=O)c3ccccc3sc12,BACTEC,MIC bound,H37Rv,,,,,≤12.5 µg/mL
Cn1cnc2c(NS(=O)(=O)c3cccc(Cl)c3)nc(Cl)cc21,visual reading,MIC99,H37Rv,,,,,12.5 µM
OCc1c(-c2ccc(Br)cc2)nc2sc(-c3cccs3)nn12,BACTEC,inhibition,H37Rv,,,6.25 µg/mL,,<90%
O=c1ccc2nc3cc(Cl)ccc3sc-2c1,BACTEC,MIC bound,H37Rv,,,,,≤12.5 µg/mL
CCCCc1nc(Cl)c(C2C(C(=O)Nc3cccc(Cl)c3)=C(C)NC(C)=C2C(=O)Nc2cccc(Cl)c2)[nH]1,resazurin,inhibition,H37Rv,,,6.25 µg/mL,,82%
COc1ccc(NN2C(N)=C(C#N)C(c3cc4cc(OC)ccc4nc3Cl)C3=C2CC(C)(C)CC3=O)cc1,agar,MIC,H37Rv,,,,,7 µg/mL
CC(=O)Nc1ccc(/C=N/NC(N)=S)cc1,,MIC,H37Rv,,,,,0.3 µg/mL
CC1(C)CC(=O)C2=C(C1)N(Nc1ccc(Cl)cc1)C(N)=C(C#N)C2c1cc2cc(Cl)ccc2nc1Cl,agar,MIC,H37Rv,,,,,87 µg/mL
CC1(C)CC(N=c2cc3n(-c4ccccc4Cl)c4ccccc4nc-3cc2Nc2ccccc2Cl)CC(C)(C)N1,,EC50,H37Rv,inside macrophages,Macrophages,,,<0.005 µg/mL
Cn1cnc2c(NS(=O)(=O)c3ccccc3Cl)nc(Cl)cc21,visual reading,MIC99,H37Rv,,,,,25 µM
CCCCc1nc(Cl)c(C2C(C(=O)Nc3ccccc3Cl)=C(C)NC(C)=C2C(=O)Nc2ccccc2Cl)[nH]1,resazurin,inhibition,H37Rv,,,6.25 µg/mL,,88%
CC(C)[C@@H](C)/C=C/[C@@H](C)[C@H]1CC[C@H]2C3=CC=C4C[C@@H](O)CC[C@]4(C)[C@H]3CC[C@]12C,,MIC,H37Rv,,,,,>128 µg/mL
C/C(=N/NC(=S)N1CCC(c2ccccc2)CC1)c1nccnc1C,BACTEC,MIC,H37Rv,,,,,≥12.5 µg/mL
Cc1ccc2nc(Cl)c(C3C(C#N)=C(N)N(Nc4ccccc4)C4=C3C(=O)CC(C)(C)C4)cc2c1,agar,MIC,H37Rv,,,,,12 µg/mL
CCCCCCCCCCCCNC(=O)c1ccc[n+](Cc2ccc(Cl)c(Cl)c2)c1.[Cl-],BACTEC,MIC bound,H37Rv,,,,,>12.5 µg/mL
Cn1cnc2c(NS(=O)(=O)c3cccc(C#N)c3)nc(Cl)cc21,visual reading,MIC99,H37Rv,,,,,>25 µM
CC1(C)CC(N=c2cc3n(-c4ccc(Cl)cc4Cl)c4ccccc4nc-3cc2Nc2ccc(Cl)cc2Cl)CC(C)(C)N1,,MIC,H37Rv,inside macrophages,Macrophages,,,0.03 µg/mL
CC(=O)O.CC(=O)O.COC(=O)C1C(O)C(C)C(O)C(C)(O)/C=C\C=C(/C)C(=O)Nc2c(C)c(C)c3c(c2O)C(=O)C(C)=C2OCOC(=C23)/C(C)=C/C(C)(O)C(O)C(C)C1OC(C)=O,BACTEC,inhibition,H37Rv,,,12.5 µg/mL,,9%
CC1CN(c2cc3c(cc2[N+](=O)[O-])c(=O)c(C(=O)O)c2n3CS2)CC(C)O1,agar,MIC,H37Rv,,,,,3.99 µM
O=C([C@@H](O)CO)N1CC=C(c2c(F)cc(N3C[C@H](COc4ccon4)OC3=O)cc2F)CC1,,MIC,linezolid resistant 8.1,,,,T460C Cys154Arg,16 µg/mL
COc1ccc(C2Oc3ccc(Br)cc3C(=O)C2O)cc1,,inhibition,H37Rv,,,12.5 µg/mL,,24%
Cn1cnc2c(NS(=O)(=O)c3ccc(C#N)cc3)nc(Cl)cc21,visual reading,MIC99,H37Rv,,,,,>25 µM
CCN1CCN(c2c(F)cc3c(=O)c(C(=O)O)cn(C4CC4)c3c2OC)CC1,,MIC,,,,,,0.39 µg/mL
Brc1ccc(-c2nc3sc(-c4cccs4)nn3c2CN2CCCC2)cc1,BACTEC,inhibition,H37Rv,,,6.25 µg/mL,,<90%
CC(Cc1cccc2c1Nc1ccccc1S2)N(C)CCO,BACTEC,inhibition,H37Rv,,,12.5 µg/mL,,48%
NC(=S)c1cccnc1,,MIC,H37Rv (INH-resistant),,,,,1024 µM
C=CC(C)(O)CC/C=C(\C)CC/C=C(\C)CCCC(C)(O)CCCC(C)(O)CCCC(C)(O)CCCC(C)(O)CCCC(C)(O)CCCC(C)(O)CCC=C(C)C,,MIC,H37Rv,,,,,>128 µg/mL
COc1c(N2CCNC(C)C2)c(F)cc2c(=O)c(C(=O)O)cn(C3CC3)c12,agar,MIC,H37Rv,,,,,1.04 µM
Nc1c(C(=O)O)cc(Br)c2c1C(=O)c1ccccc1C2=O,BACTEC,inhibition,H37Rv,,,12.5 µg/mL,,-9%
COc1cc(/C=N/N=c2/scc(-c3cc4cc(Br)ccc4oc3=O)n2C2CCCCC2)ccc1O,,inhibition,H37Rv,,,6.25 µg/mL,,13%
O=C(O)c1c2n(c3cc(N4CCN(C(=O)c5ccco5)CC4)c(F)cc3c1=O)CS2,agar,MIC,H37Rv,,,,,3.63 µM
C=CC(C)(O)CC/C=C(\C)CCCC(C)(O)CCCC(C)(O)CCC=C(C)C,,MIC,H37Rv,,,,,>128 µg/mL
COc1ccc(/C=N/N=c2/scc(-c3cc4ccccc4oc3=O)n2C2CCCCC2)cc1OC,,MIC,H37Rv,,,,,>6.25 µg/mL
CCN(CC)CCOC(=O)C1C2CC3OC(=O)C1C3C2,BACTEC,MIC bound,H37Rv,,,,,>12.5 µg/mL
Brc1ccc(-c2nc3sc(-c4ccco4)nn3c2CC2CCOCC2)cc1,BACTEC,inhibition,H37Rv,,,6.25 µg/mL,,<90%
NNC(=O)c1ccncc1,agar,MIC,H37Rv,,,,,0.36 µM
NNC(=O)c1cccnc1,,MIC,H37Rv (INH-resistant),,,,,4096 µM
Cc1cc(CCN)c(C)c2c1oc1ccccc12,BACTEC,MIC,H37Rv,,VERO,,,6.25 µg/mL
C=CC(C)(O)CC/C=C(\C)CCC(O)C(C)(O)CCCC(C)(O)CCCC(C)(O)CCCC(C)(O)CCCC(C)(O)CCCC(C)(O)CCC=C(C)C,,MIC,H37Rv,,,,,>128 µg/mL
O=C1CSC(c2c(-c3ccccc3)nc3sc(C4CCCCC4)nn23)N1c1ccccc1,BACTEC,inhibition,H37Rv,,,6.25 µg/mL,,<90%
NNC(=O)c1ccncc1,resazurin,MIC,MDR-699,,,,,64 µg/mL
CN(C)c1cc(C(N)=S)ccn1,,MIC,H37Rv (drug-susceptible),,,,,512 µM
Cn1c(=O)nc(N)n(NC(=O)CCl)c1=O,BACTEC,MIC,H37Rv,,,,,≥12.5 µg/mL
Cc1ccc2nc(Cl)c(C3C(C#N)=C(N)N(Nc4ccc(Br)cc4)C4=C3C(=O)CC(C)(C)C4)cc2c1,agar,MIC,H37Rv,,,,,47 µg/mL
Cn1cnc2c(NC(=O)Nc3ccccc3F)nc(Cl)cc21,visual reading,MIC99,H37Rv,,,,,6.5 µM
Cc1onc(-c2c(F)cccc2F)c1C(=O)N1CCN(c2cc3c(cc2F)c(=O)c(C(=O)O)c2n3CS2)CC1,agar,MIC,H37Rv,,,,,11.23 µM
Cc1ccccc1S(=O)(=O)Nc1nc(Cl)cc2c1ncn2C,visual reading,MIC99,H37Rv,,,,,>25 µM
CC1CN(c2c(F)cc3c(=O)c(C(=O)O)cn(C4CC4)c3c2Br)CCN1,,MIC,,,,,,0.78 µg/mL
CCCCCCCn1c(=O)c2c3c(cnc2n(CCCCCCC)c1=O)C(=O)C1=C(C3=O)C2CCC1CC2,luminescence,EC99,H37Rv,,,,pSMT1 luciferase reporter plasmid,6.89 µg/mL
CCCCc1nc(Cl)c(C2C(C(=O)Nc3ccccc3[N+](=O)[O-])=C(C)NC(C)=C2C(=O)Nc2ccccc2[N+](=O)[O-])[nH]1,resazurin,inhibition,H37Rv,,,6.25 µg/mL,,91%
COc1ccc2oc3cccc(NCCN(C)C)c3c(=O)c2c1,BACTEC,inhibition,H37Rv,,,12.5 µg/mL,,82.58%
O/N=C/c1c(-c2ccccc2)nc2sc(-c3cccs3)nn12,BACTEC,inhibition,H37Rv,,,6.25 µg/mL,,<90%
CCN(CC)Cc1c(C)nc2ccc(N(C)C)cc2c1Cl,BACTEC,MIC bound,H37Rv,,,,,>12.5 µg/mL
O=C(/C=C/c1ccncc1)c1ccco1,,inhibition,,,,12.5 µg/mL,,0%
CC(C)C1CCc2ncc3c(c2C1=O)C(=O)C1=C(C3=O)C2CCC1C2,luminescence,EC90,H37Rv,,,,pSMT1 luciferase reporter plasmid,>100 µg/mL
Nc1c(-c2nccc(=O)[nH]2)ncn1[C@@H]1O[C@H](CO)[C@@H](O)[C@H]1O,BACTEC,inhibition,H37Rv,,,12.5 µg/mL,,17%
C[C@@H]1CN(c2nc3c(cc2F)c(=O)c(C(=O)O)cn3C(C)(C)C)C[C@H](C)N1,,MIC,,,,,,0.78 µg/mL
Brc1ccc(-c2nc3sc(-c4cccs4)nn3c2CC2CCOCC2)cc1,BACTEC,inhibition,H37Rv,,,6.25 µg/mL,,<90%
O=C(O)c1c2n(c3cc(N4CCC(O)(c5ccc(Cl)cc5)CC4)c(F)cc3c1=O)CS2,agar,MIC,H37Rv,,,,,3.38 µM
CCCCn1c(=O)c2c3c(cnc2n(CCCC)c1=O)C(=O)C1=C(C3=O)C2CCC1CC2,luminescence,EC90,H37Rv,,,,pSMT1 luciferase reporter plasmid,5.2 µg/mL
Nc1ccc(C(=O)/C=C/c2ccccc2)cc1,,EC50,,,,,,>12.5 µg/mL
CC(=O)NNc1nc(C)cc(=O)[nH]1,BACTEC,MIC bound,H37Rv,,,,,>12.5 µg/mL
O=C(/C=C/c1ccccc1)c1cccc(Br)c1O,,EC50,H37Rv,,,,,<12.5 µg/mL
O=P(O)(O)OC1OC(CO)C(O)C(O)C1O,BACTEC,MIC,H37Rv,,,,,≥12.8 µg/mL
CCOc1ccc(C(N)=S)cc1,,MIC,H37Rv,,,,,512 µM
CC(=O)C(N=Nc1ccc(S(=O)(=O)NC2NCCC(C)N2)cc1)C(=O)Nc1ccccc1C,BACTEC,MIC bound,H37Rv,,,,,>12.5 µg/mL
Cc1ccc(/C=N/N=c2/scc(-c3cc4cc(Br)ccc4oc3=O)n2C2CCCCC2)cc1,,MIC,H37Rv,,,,,>6.25 µg/mL
CCCCc1nc(Cl)c(C2C(C(=O)Nc3ccc(F)cc3)=C(C)NC(C)=C2C(=O)Nc2ccc(F)cc2)[nH]1,,MIC,H37Rv,,,,,0.02 µg/mL
C[N+](C)(C)CC(=O)N/N=C/c1ccccc1O,BACTEC,MIC bound,H37Rv,,,,,>12.5 µg/mL
CC1COc2c(N3CCN(C)CC3)c(F)cc3c(=O)c(C(=O)O)cn1c23,broth dilution,MIC,DK97A,,,,,0.5 µg/mL
NNC(=O)c1ccccc1SSc1ccccc1C(=O)NN,resazurin,inhibition,H37Rv,,,6.25 µg/mL,,23%
O=c1oc2ccc(Br)cc2cc1-c1cs/c(=N/N=C/c2ccc(Br)cc2)n1C1CCCCC1,,MIC,H37Rv,,,,,>6.25 µg/mL
Cn1cnc2c(NC(=O)Nc3cccc(F)c3)nc(Cl)cc21,visual reading,MIC99,H37Rv,,,,,6.5 µM
Cc1cc(-c2ccc(N=Nc3cc(S(=O)(=O)[O-])c4cccnc4c3O)c(C)c2)ccc1N=Nc1cc(S(=O)(=O)[O-])c2cccnc2c1O.[Na+].[Na+],BACTEC,MIC bound,H37Rv,,,,,>12.5 µg/mL
NNC(=O)c1ccncc1,broth dilution,MIC,CDC1551,,,,,0.03 µg/mL
CC1=C(CN(CC(=O)O)CC(=O)O)C(=O)C(C(C)C)=C/C1=C(\c1ccccc1S(=O)(=O)O)c1cc(C(C)C)c(O)c(CN(CC(=O)O)CC(=O)O)c1C,BACTEC,MIC bound,H37Rv,,,,,>12.5 µg/mL
O=C(O)C(=O)O.OC(CNCCc1ccccc1)CN1c2ccccc2Sc2ccccc21,resazurin,MIC,XDR-164,,,,,32 µg/mL
CC(C)[C@@H](C)/C=C/[C@@H](C)[C@H]1CCC2[C@@]34C=C[C@]5(C[C@@H](O)CC[C@]5(C)C3CC[C@@]21C)OO4,,MIC,H37Rv,,,,,1 µg/mL
OCc1c(-c2ccccc2)nc2sc(C3CCCCC3)nn12,BACTEC,inhibition,H37Rv,,,6.25 µg/mL,,100%

A second listing of 8 rows from above:

smiles | read by | read-out | strain | conditions | cells | tested at | changes | value
O=C1CSC(c2c(-c3ccccc3)nc3sc(C4CCCCC4)nn23)N1c1ccccc1 | BACTEC | inhibition | H37Rv |  |  | 6.25 µg/mL |  | <90%
CCN1CCN(c2c(F)cc3c(=O)c(C(=O)O)cn(C4CC4)c3c2OC)CC1 |  | MIC |  |  |  |  |  | 0.39 µg/mL
O=C(/C=C/c1ccccc1)c1cccc(Br)c1O |  | EC50 | H37Rv |  |  |  |  | <12.5 µg/mL
Cc1ccc(/C=N/N=c2/scc(-c3cc4cc(Br)ccc4oc3=O)n2C2CCCCC2)cc1 |  | MIC | H37Rv |  |  |  |  | >6.25 µg/mL
CC1=C(CN(CC(=O)O)CC(=O)O)C(=O)C(C(C)C)=C/C1=C(\c1ccccc1S(=O)(=O)O)c1cc(C(C)C)c(O)c(CN(CC(=O)O)CC(=O)O)c1C | BACTEC | MIC bound | H37Rv |  |  |  |  | >12.5 µg/mL
CC1CN(c2c(F)cc3c(=O)c(C(=O)O)cn(C4CC4)c3c2Br)CCN1 |  | MIC |  |  |  |  |  | 0.78 µg/mL
O=c1ccc2nc3cc(Cl)ccc3sc-2c1 | BACTEC | MIC bound | H37Rv |  |  |  |  | ≤12.5 µg/mL
CCCCn1c(=O)c2c3c(cnc2n(CCCC)c1=O)C(=O)C1=C(C3=O)C2CCC1CC2 | luminescence | EC90 | H37Rv |  |  |  | pSMT1 luciferase reporter plasmid | 5.2 µg/mL